# From paper PMC12175177 (Frontiers in Pharmacology, 2025)
# Test system: SARS-CoV-2 A2.5 variant
# Assay type: cell-based
structure (smiles),measurement,value
"COc1cc(NC(C)CCCN)c2ncccc2c1 (stereo not shown) [Primaquine Phosphate (PQ), Primaquine Phosphate]",SI (selectivity index = CC50%/IC50%),1
